Experimental findings from patent US20190085033A1 are described below.

In the experiment the target is BG505. The experiment is described as follows: SPR.

Substance PGT128 yielded a dissociation constant (Kd) of 8 nM.
